Measured values from several laboratories, pooled; numbers as filed in NIAID ChemDB.

All rows: enzyme or target tests

Conditions beyond the fields shown may differ between rows. ICn: concentration for n% inhibition. Percent inhibition refers to the dose given; in toxicity tests it is the harm to the cells. a–b is a range or a potency band. Blank or dashed fields: not listed here.

smiles,tested at,target,method,species,endpoint,strain,result
O=C(O)c1cc2nc(-c3ccc(OCc4ccccc4)cc3)c(Cc3ccccc3)c(=O)n2[nH]1,,RNA-dependent RNA polymerase,,Hepatitis C virus,IC50,,1–10 µM
Cc1ccccc1-c1cc2c(C(F)(F)F)cc(C(F)(F)F)nc2n2c(-c3ccccc3)cnc12,,Envelope glycoprotein 2,luciferase / reporter gene,Hepatitis C virus,IC50,JFH-1,>20 µM
COc1nc(NCCN2CCOCC2)nc(Nc2ccc3cn[nH]c3c2)n1,,DNA polymerase,,Hepatitis B virus,IC50,,0.01–0.1 µg/mL
COc1cccc(CC2C(=O)CC(CCc3ccc(OC)c(OC)c3)(C3CCCC3)OC2=O)c1,,Nonstructural protein 5B,,Hepatitis C virus,IC50,,1–10 µM
O=C(O)c1sc(-c2ccccc2)cc1N(Cc1ccc(-c2ccc(F)c(Cl)c2)s1)C(=O)c1ccc(Cl)cc1Cl,,NS3 ATPase,,Hepatitis C virus,IC50,,<5 µM
Cc1ccc(-c2cc3c(C(F)(F)F)cc(C(F)(F)F)nc3n3c(-c4ccc(C)cc4)cnc23)cc1,,Envelope glycoprotein 2,luciferase / reporter gene,Hepatitis C virus,IC50,JFH-1,>20 µM
O=C(N[C@@H](Cc1cc2ccccc2[nH]1)C(=O)O)c1cc2nc(-c3cccs3)c(C3CCCCC3)c(=O)n2[nH]1,,RNA-dependent RNA polymerase,,Hepatitis C virus,IC50,,1–10 µM
FC(F)(F)c1cc(C(F)(F)F)c2ccc3ncc(-c4nc5ccccc5o4)n3c2n1,,Envelope glycoprotein 2,luciferase / reporter gene,Hepatitis C virus,IC50,JFH-1,>20 µM
COc1ccc(CCC2(C3CCCC3)CC(=O)CC(=O)O2)cc1F,,Nonstructural protein 5B,,Hepatitis C virus,IC50,,<1 µM
FC(F)(F)c1cc(C(F)(F)F)c2ccc3ncc(-c4cccs4)n3c2n1,,Envelope glycoprotein 2,luciferase / reporter gene,Hepatitis C virus,IC50,JFH-1,8.2 µM
CS(=O)(=O)NC(=O)c1cnn2c(C3CCCCC3)c(-c3ccc(OCc4ccccc4)cc3)cnc12,,RNA-dependent RNA polymerase,,Hepatitis C virus,IC50,,1–10 µM
COc1nc(NCCCn2ccnc2)nc(Nc2ccc3[nH]ncc3c2)n1,0.1 µg/mL,Nonstructural protein 5B,,Hepatitis C virus,inhibition,,43%
CCCN(NC(=O)[C@H]1C[C@@H](OCc2ccccc2)CN1C(=O)[C@@H](NC(=O)[C@@H](OC(=O)[C@@H](CC(=O)O)NC(=O)[C@H](CC(=O)O)NC(C)=O)[C@H](C)CC)C(C)C)C(=O)OCc1ccccc1,,Serine protease,,Hepatitis C virus,IC50,,0.8 µM
COC(=O)C1=C(C(=O)OC)C2N(C)c3ccc(OC)cc3[C@@]23C[C@@H](C(=O)OC)N(C(=O)CC(C)C)C3=N1,,Core106 dimerization,AlphaScreen,Hepatitis C virus,IC50,,9.3 µM
Cc1ccc(C(=O)N(C)c2cc(-c3cccc(C#N)c3)sc2C(=O)O)cc1,,NS3 ATPase,,Hepatitis C virus,IC50,,<5 µM
COc1nc(Nc2ccc3[nH]ncc3c2)nc(NC2CC2)n1,1 µg/mL,Nonstructural protein 5B,,Hepatitis C virus,inhibition,,38%
O=C(O)c1cnn2c(-c3ccccc3Cl)cc(-c3ccc(F)cc3)nc12,,RNA-dependent RNA polymerase,,Hepatitis C virus,IC50,,>10 µM
CC(C)C[C@H](NC(=O)C(=O)OC(C)(C)C)C(=O)N1C[C@@H](n2cc(-c3ccccc3)nn2)C[C@H]1C(=O)N[C@H](Cc1ccccc1)C(=O)NS(=O)(=O)C1CC1,,Nonstructural protein 3/4A,FRET,Hepatitis C virus,IC50,,>100 µM
Cc1noc(COc2ccc(CCC3(C4CCCC4)CC(O)=CC(=O)O3)cc2)n1,,Nonstructural protein 5B,,Hepatitis C virus,IC50,,10–50 µM
COc1nc(NCCCN2CCOCC2)nc(Nc2ccc3cn[nH]c3c2)n1,0.1 µg/mL,Nonstructural protein 5B,,Hepatitis C virus,inhibition,,40%
FC(F)(F)c1cc(C(F)(F)F)c2ccc3ncc(-c4ccccc4)n3c2n1,,Envelope glycoprotein 2,luciferase / reporter gene,Hepatitis C virus,IC50,,12 µM
Cc1ccc(C(=O)N(Cc2ccccc2)c2cc(-c3ccccc3)sc2C(=O)O)cc1,,NS3 ATPase,,Hepatitis C virus,IC50,,<5 µM
Clc1cccc(Oc2cccc(-c3cnc4c(-c5nn[nH]n5)cnn4c3C3CCCCC3)c2)c1,,RNA-dependent RNA polymerase,,Hepatitis C virus,IC50,,1–10 µM
COc1ccc(CCC2(C3CCCC3)CC(O)=C(Sc3nc4[nH]ccc4c(=O)[nH]3)C(=O)O2)cc1,,Nonstructural protein 5B,,Hepatitis C virus,IC50,,<1 µM
Cc1ccc(S(=O)(=O)N(c2cc(-c3ccccc3)sc2C(=O)O)C(C)C)c(C)c1,,NS3 ATPase,,Hepatitis C virus,IC50,,5–20 µM
COc1ccc(CCC2(C3CCCC3)CC(O)=C(Sc3nnnn3CCN(C)C)C(=O)O2)cc1,,Nonstructural protein 5B,,Hepatitis C virus,IC50,,1–10 µM
CCC[C@]1(CC(=O)O)OCCc2c1[nH]c1c(C)ccc(C#N)c21,,NS5B polymerase,,Hepatitis C virus,IC50,FC 1-20 genotype 1B,0.5 µM
CC[C@@H]1C[C@]1(NC(=O)[C@@H]1C[C@@H](Oc2cc(-c3csc(NC(C)C)n3)nc3c(Cl)c(OCCN4CCOCC4)ccc23)CN1C(=O)[C@@H](NC(=O)OC1C[C@@H]2C[C@@H]2C1)C(C)(C)C)C(=O)O,,Nonstructural protein 3 protease,fluorescence,Hepatitis C virus,Ki,Con1 (gt 1b),0.00041 µM
COc1ccc2cc(OC[C@@H]3C[C@H]4C(=O)N(C)CCCC/C=C/[C@@H]5C[C@@]5(C(=O)O)NC(=O)N34)c(-c3nc(C(C)C)cs3)nc2c1Cl,,Nonstructural protein 3/4A,FRET,Hepatitis C virus,IC50,,<1 µM
COc1nc(NCCO)nc(Nc2ccc3[nH]ncc3c2)n1,0.1 µg/mL,DNA polymerase,,Hepatitis B virus,inhibition,,34%
O=C(NS(=O)(=O)Cc1ccccc1)c1cnn2c(C3CCCCC3)c(-c3ccc(F)cc3)cnc12,,RNA-dependent RNA polymerase,,Hepatitis C virus,IC50,,1–10 µM
COc1nc(NCCO)nc(Nc2ccc3cn[nH]c3c2)n1,1 µg/mL,DNA polymerase,,Hepatitis B virus,inhibition,,73%
COc1cccc(COc2ccc(-c3nc4cc(C(=O)O)[nH]n4c(=O)c3C3CCCCC3)cc2)c1,,RNA-dependent RNA polymerase,,Hepatitis C virus,IC50,,1–10 µM
COC(=O)C1=C(C(=O)OC)C2N(CCOCCN3c4ccccc4[C@]45CC(=O)N(Cc6ccccc6)C4=NC(C(=O)OC)=C(C(=O)OC)C35)C3C=CC=CC3[C@@]23CCC(=O)N(Cc2ccccc2)C3=N1,,Core106 dimerization,AlphaScreen,Hepatitis C virus,IC50,,0.1 µM
COc1cc(OC)c(CCC2(C3CCCC3)CC(O)=C(Sc3nnc(-c4cccs4)n3C)C(=O)O2)cc1Cl,,Nonstructural protein 5B,,Hepatitis C virus,IC50,,<1 µM
COc1nc(NCCN2CCOCC2)nc(Nc2ccc3[nH]ncc3c2)n1,1 µg/mL,DNA polymerase,,Hepatitis B virus,inhibition,,73%
Cc1cc(C(=O)N(C)c2cc(-c3ccccc3)sc2C(=O)O)ccc1Br,,NS3 ATPase,,Hepatitis C virus,IC50,,<5 µM
O=C1CC(=O)OC(CCc2ccc3c(c2)OCO3)(C2CCCC2)C1,,Nonstructural protein 5B,,Hepatitis C virus,IC50,,10–50 µM

For reference, 5 entries again:

smiles	tested at	target	method	species	endpoint	strain	result
O=C1CC(=O)OC(CCc2ccc3c(c2)OCO3)(C2CCCC2)C1		Nonstructural protein 5B		Hepatitis C virus	IC50		10–50 µM
O=C(N[C@@H](Cc1cc2ccccc2[nH]1)C(=O)O)c1cc2nc(-c3cccs3)c(C3CCCCC3)c(=O)n2[nH]1		RNA-dependent RNA polymerase		Hepatitis C virus	IC50		1–10 µM
COc1nc(NCCO)nc(Nc2ccc3cn[nH]c3c2)n1	1 µg/mL	DNA polymerase		Hepatitis B virus	inhibition		73%
COc1nc(NCCCn2ccnc2)nc(Nc2ccc3[nH]ncc3c2)n1	0.1 µg/mL	Nonstructural protein 5B		Hepatitis C virus	inhibition		43%
COc1ccc(CCC2(C3CCCC3)CC(O)=C(Sc3nnnn3CCN(C)C)C(=O)O2)cc1		Nonstructural protein 5B		Hepatitis C virus	IC50		1–10 µM